The test has as its system Plasmodium falciparum. As to the kind of experiment: ST_JUDE: Plasmodium falciparum K1 EC50 (uM) as measured by SYBR green dye. Type of test: functional, organism-based.

Some compounds may have been tested in ways that are not shown here.

`Nc1nc(N)c([N+](=O)[O-])nc1[N+](=O)[O-]`: the response was half-maximal at 3.54 µM (EC50).
